Compound potency records, mixed from different reports. Data source: NIAID ChemDB in PubChem.

Shared fields: enzyme or target tests

An empty or dashed field is not shown.

structure | target | read-out | organism | method | strain | result
O=P(O)(O)C(O)P(=O)(O)O | DNA polymerase | IC50 | Hepatitis B virus |  |  | >500 µM
CSc1ccccc1NC(=O)Nc1cccc(-c2nc(C(=O)O)c(O)c(=O)[nH]2)c1 | HCV polymerase | IC50 | Hepatitis C virus |  |  | <100 µM
CC[C@H](C)[C@H](NC(=O)[C@@H](NC(=O)[C@H](CCC(=O)O)NC(=O)[C@@H](N)CC(=O)O)C(c1ccccc1)c1ccccc1)C(=O)N[C@@H](CC1CCCCC1)C(=O)O | NS3 protease | IC50 | Hepatitis C virus |  |  | 46 µM
NC(COC(=O)Nc1ccsc1-c1nc(C(=O)O)c(O)c(=O)[nH]1)c1ccccc1 | HCV polymerase | IC50 | Hepatitis C virus |  |  | <25 µM
CCCN(NC(=O)[C@@H]1CCCN1C(=O)[C@@H](NC(=O)[C@@H](NC(=O)[C@H](CC(=O)O)NC(=O)[C@H](CCC(=O)O)NC(=O)[C@@H](NC(C)=O)[C@@H](C)O)C(C)C)C(C)C)C(=O)Oc1ccc([N+](=O)[O-])cc1 | HCV NS3 protease | Ki | Hepatitis C virus |  |  | 5 µM
O=C(O)[C@H](Cc1ccccc1)N(Cc1ccc(-c2cc(C(F)(F)F)ccc2Cl)o1)C(=O)c1ccc(Cl)cc1Cl | RNA-dependent RNA polymerase | IC50 | Hepatitis C virus |  |  | <5 µM
O=C(CCCCC(=O)Nc1ccc(-c2nc3ccccc3s2)cc1)Nc1ccc(-c2nc3ccccc3s2)cc1 | Nonstructural protein 3 NTPase/helicase | IC50 | Hepatitis C virus |  |  | >25 µg/mL
CCCC(NC(=O)[C@@H]1C2CCCC2CN1C(=O)[C@@H](NC(=O)[C@@H](NC(=O)c1cnccn1)C1CCCCC1)C(C)(C)C)C(=O)C(=O)N[C@@H](C)CC | Nonstructural protein 3 protease | Ki | Hepatitis C virus |  |  | 0.084 µM
O=P(O)(O)OP(=O)(O)O | DNA polymerase | IC50 | Hepatitis B virus |  |  | ~500 µM
CCCN(NC(=O)[C@@H]1CCCN1C(=O)[C@@H](NC(=O)[C@@H](NC(=O)[C@@H](CC(C(=O)O)C(=O)O)NC(=O)[C@H](CCC(=O)O)NC(=O)OC)C(C)C)C(C)C)C(=O)OCCl | NS3 serine protease | Ki | Hepatitis C virus |  |  | 0.03 µM
CC(C)C[C@H](NC(=O)[C@H](CCC(=O)O)N(C)C(=O)[C@@H](N)CC(=O)O)C(=O)N[C@@H](CCC(=O)O)C(=O)N[C@@H](CC1CCCCC1)C(=O)N[C@@H](CS)C(=O)O | NS3 protease | IC50 | Hepatitis C virus |  |  | 1 µM
CC[C@H](NC(=O)[C@H](c1ccccc1)N1CCC(NC(=O)OC(C)(C)C)(C(C)C)C1=O)B1OC2CC3CC(C3(C)C)C2(C)O1 | NS3 serine protease | IC50 | Hepatitis C virus |  |  | <50 µM
C=CC1CCC1(NC(=O)[C@@H]1C[C@@H](Oc2cc(-c3ccccc3)nc3cc(OC)ccc23)CN1C(=O)[C@@H](NC(=O)OC(C)(C)C)C(C)(C)C)C(=O)O | HCV NS3/NS4A protease | IC50 | Hepatitis C virus |  |  | 0.22 µM
CCC[C@H](NC(=O)[C@@H]1C2CCCC2CN1C(=O)[C@@H](NC(=O)[C@@H](NC(=O)c1cnccn1)C(C)CC)C(C)(C)C)C(=O)C(=O)NC1CC1 | Nonstructural protein 3 protease | Ki | Hepatitis C virus |  |  | 0.18 µM
C[C@@]1(O)[C@H](O)[C@@H](CO)O[C@H]1C1C=Nc2c(N)ncn[n+]21 | NS5B TP | IC50 | Hepatitis C virus |  | GT1b | 2.1 µM
N[C@H](C(=O)Nc1ccsc1-c1nc(C(=O)O)c(O)c(=O)[nH]1)c1ccccc1 | HCV polymerase | IC50 | Hepatitis C virus |  |  | <25 µM
O=C(O)CCN(CCC(c1ccccc1)c1ccccc1)C(=O)[C@@H](NC(=O)[C@@H]1CCCC[C@H]1C(=O)O)c1ccc(Br)cc1 | NS3/NS4A protease | IC50 | Hepatitis C virus |  |  | 2 µM
CC[C@H](NC(=O)[C@H](CC1CCCCC1)NC(=O)[C@@H](NC(=O)[C@H](CC(C)C)NC(=O)c1cnccn1)[C@@H](C)CC)C(=O)C(=O)NCC(=O)O | NS3 serine protease | Ki | Hepatitis C virus |  |  | <0.01 µM
O=C(Cc1ccc2ccccc2c1)Nc1cccc(-c2nc(C(=O)O)c(O)c(=O)[nH]2)c1 | HCV polymerase | IC50 | Hepatitis C virus |  |  | <100 µM
C=CCN(CC(=O)O)C(=O)[C@H](CCC(=O)O)NC(=O)[C@H](CCC(=O)O)NC(=O)[C@H](CCSC)NC(=O)[C@H](CCC(=O)O)NC(=O)[C@@H](N)CC(=O)O | NS3 protease | IC50 | Hepatitis C virus |  |  | 12 µM
CC(C)C[C@H](NC(=O)[C@H](CC(=O)O)NC(=O)[C@H](CC1CCCCC1)NC(=O)[C@@H]1CCCC[C@H]1C(=O)O)C(N)=O | NS3/NS4A protease | IC50 | Hepatitis C virus |  |  | 15 µM
CC(C)(C)c1ccc(C(=O)Nc2ocnc2-c2nc(C(=O)O)c(O)c(=O)[nH]2)cc1 | HCV polymerase | IC50 | Hepatitis C virus |  |  | <100 µM
C=C[C@@H]1C[C@]1(NC(=O)[C@@H]1C[C@@H](Oc2nccc3ccc(Br)cc23)CN1C(C)=O)C(=O)NS(=O)(=O)C1CC1 | Nonstructural protein 3/4A | IC50 | Hepatitis C virus | FRET | 1b A156S | >3 µM
CC(=O)N[C@@H](CC(=O)O)C(=O)N[C@@H](CCC(=O)O)C(=O)N[C@H](C(=O)N[C@@H](CCC(=O)O)C(=O)N[C@@H](CC1CCCCC1)C(=O)N[C@@H](CC(F)F)C(=O)C(=O)C(=O)O)C(c1ccccc1)c1ccccc1 | NS3/NS4A protease | IC50 | Hepatitis C virus |  |  | 0.00001 µM
CCCC(NC(=O)[C@@H]1C2CCCC2CN1C(=O)[C@@H](NC(=O)[C@H](CC1CCCCC1)NC(=O)c1cnccn1)C(C)(C)C)C(=O)C(=O)NC1CC1 | Nonstructural protein 3 protease | Ki | Hepatitis C virus |  |  | 0.07 µM
Nc1nc2ccc(S(=O)(=O)c3ccc([N+](=O)[O-])cc3)cc2s1 | Nonstructural protein 3 NTPase/helicase | IC50 | Hepatitis C virus |  |  | >25 µg/mL
CN1C(=O)[C@]23CC4=CC=C[C@H](O)[C@H]4N2C(=O)[C@@]1(CO)SS3 | NS5B polymerase | Ki | Hepatitis C virus |  |  | 230 µM
c1cc(CN2CCC(C3=N[C@@H]4CCCC[C@H]4N3)CC2)ccc1CN1CCC(C2=N[C@H]3CCCC[C@@H]3N2)CC1 | Nonstructural protein 3 NTPase/helicase | IC50 | Hepatitis C virus |  |  | >25 µg/mL
O=C(O)C(O)P(=O)(O)O | DNA polymerase | IC50 | Hepatitis B virus |  |  | >500 µM
O=C(CCCCCCCC(=O)Nc1nc2ccccc2[nH]1)Nc1nc2ccccc2[nH]1 | Nonstructural protein 3 NTPase/helicase | IC50 | Hepatitis C virus |  |  | >25 µg/mL
C=C[C@H]1CC1(NC(=O)[C@@H]1C[C@@H](Oc2ccnc3ccccc23)CN1C(=O)[C@@H](NC(=O)OC(C)(C)C)[C@@H](C)OC)C(=O)O | HCV NS3/NS4A protease | IC50 | Hepatitis C virus |  |  | 2.6 µM
O=C(Nc1ccc(-c2nc3ccccc3[nH]2)cc1)c1ccc(C(=O)Nc2ccc(-c3nc4ccccc4[nH]3)cc2)cc1 | Nonstructural protein 3 NTPase/helicase | IC50 | Hepatitis C virus |  |  | <25 µg/mL
O=C(O)[C@H](Cc1ccccc1)N(Cc1ccc(-c2cc3ccccc3o2)s1)C(=O)c1ccc(Cl)cc1Cl | RNA-dependent RNA polymerase | IC50 | Hepatitis C virus |  |  | <5 µM
N[C@@H](CC(=O)O)C(=O)N[C@@H](CCC(=O)O)C(=O)N[C@@H](Cc1ccc(O)cc1)C(=O)N[C@@H](CCC(=O)O)C(=O)N[C@@H](CC1CCCCC1)C(=O)N[C@@H](CS)C(=O)O | NS3 protease | IC50 | Hepatitis C virus |  |  | 0.24 µM
CCC[C@H](NC(=O)[C@@H]1C2CCCC2CN1C(=O)[C@@H](NC(=O)[C@@H](NC(=O)c1cnccn1)C1CCCCC1)C(C)(C)C)C(=O)C(=O)N[C@@H](C)Cc1ccccc1 | Nonstructural protein 3 protease | Ki | Hepatitis C virus |  |  | 0.046 µM
C=C[C@H]1CC1(NC(=O)[C@@H]1C[C@@H](Oc2cc(-c3ccccc3)nc3ccccc23)CN1C(=O)[C@@H](NC(=O)C(F)(F)F)C(C)C)C(=O)O | HCV NS3/NS4A protease | IC50 | Hepatitis C virus |  |  | 0.88 µM
O=C(CCCCCCC(=O)Nc1nc2ccccc2[nH]1)Nc1nc2ccccc2[nH]1 | Nonstructural protein 3 NTPase/helicase | IC50 | Hepatitis C virus |  |  | >25 µg/mL
CC(=O)N[C@@H](CC(=O)O)C(=O)N[C@@H](CCC(=O)O)C(=O)N[C@H](C(=O)N[C@@H](CCC(=O)O)C(=O)N[C@@H](CC1CCCCC1)C(=O)N[C@@H](CS)C(=O)O)C(c1ccccc1)c1ccccc1 | NS3/NS4A protease | IC50 | Hepatitis C virus |  |  | 0.05 µM
C=C[C@H]1CC1(NC(=O)[C@@H]1C[C@@H](Oc2cc(-c3ccccc3)nc3ccccc23)CN1C(=O)[C@@H](NC(C)=O)C1CCCCC1)C(=O)O | HCV NS3/NS4A protease | IC50 | Hepatitis C virus |  |  | 1.9 µM
C=CN(CC(=O)O)C(=O)[C@H](CCC(=O)O)NC(=O)[C@H](CCC(=O)O)NC(=O)[C@H](CCSC)NC(=O)[C@H](CCC(=O)O)NC(=O)[C@@H](N)CC(=O)O | NS3 protease | IC50 | Hepatitis C virus |  |  | 38 µM
O=C(O)C(=O)O | DNA polymerase | IC50 | Hepatitis B virus |  |  | >500 µM
COc1cccc(NC(=O)Nc2cccc(-c3nc(C(=O)O)c(O)c(=O)[nH]3)c2)c1 | HCV polymerase | IC50 | Hepatitis C virus |  |  | <100 µM
O=C(CCCCCCC(=O)Nc1ccc(-c2nc3ccccc3s2)cc1)Nc1ccc(-c2nc3ccccc3s2)cc1 | Nonstructural protein 3 NTPase/helicase | IC50 | Hepatitis C virus |  |  | >25 µg/mL
CCCC(NC(=O)[C@@H]1C2CCCC2CN1C(=O)[C@@H](NC(=O)[C@@H](CC(C1CCCCC1)C1CCCCC1)NC(=O)c1cnccn1)C(C)(C)C)C(=O)C(=O)NC1CC1 | Nonstructural protein 3 protease | Ki | Hepatitis C virus |  |  | 0.655 µM
CC(=O)Nc1ccsc1-c1nc(C(=O)O)c(O)c(=O)[nH]1 | HCV polymerase | IC50 | Hepatitis C virus |  |  | <25 µM
CCC[C@@H](C=O)NC(=O)[C@H](CC)NC(=O)[C@@H](NC(=O)[C@@H](NC(=O)[C@H](CC(=O)O)NC(=O)[C@H](CCC(=O)O)NC(C)=O)C(C)C)C(C)C | NS3/NS4A protease | IC50 | Hepatitis C virus |  |  | 12 µM
CC(C)(C)OC(=O)c1ccc(N[C@H](C(=O)N2C[C@H](Oc3nc(-c4ccccc4)nc4ccccc34)C[C@H]2C(=O)NC2(C(=O)O)C[C@@H]2C2CC2)C(C)(C)C)cc1 | HCV NS3/NS4A protease | IC50 | Hepatitis C virus |  |  | 0.64 µM
CSCC[C@H](NC(=O)[C@H](CCC(=O)O)NC(=O)[C@H](CC(=O)O)NC(C)=O)C(=O)N[C@@H](CCC(=O)O)C(=O)N[C@@H](CC1CCCCC1)C(=O)N[C@@H](CS)C(=O)O | NS3/NS4A protease | IC50 | Hepatitis C virus |  |  | 0.35 µM
O=C(O)CP(=O)(O)O | DNA polymerase | IC50 | Hepatitis B virus |  |  | >500 µM
Nc1ccc(-c2nc3ccccc3o2)cc1 | Nonstructural protein 3 NTPase/helicase | IC50 | Hepatitis C virus |  |  | >25 µg/mL
O=P(O)(O)CP(=O)(O)O | DNA polymerase | IC50 | Hepatitis B virus |  |  | >500 µM
O=C(O)[C@H](Cc1cn(Cc2ccccc2)cn1)N(Cc1cccc(Br)c1)C(=O)c1ccc(Cl)cc1Cl | RNA-dependent RNA polymerase | IC50 | Hepatitis C virus |  |  | 5–20 µM
O=C(Nc1ccsc1-c1nc(C(=O)O)c(O)c(=O)[nH]1)OCc1ccccc1Cl | HCV polymerase | IC50 | Hepatitis C virus |  |  | <25 µM
C=C[C@@H]1C[C@]1(NC(=O)[C@@H]1C[C@@H](Oc2cc(-c3ccccc3)nc3cc(OC)ccc23)CN1C(=O)[C@@H](NC(=O)OC(C)(C)C)C(C)(C)C)C(=O)O | NS3 serine protease | Ki | Hepatitis C virus |  |  | <0.5 µM

Two numbers with a dash give a range or band. Neighbouring rows are from separate reports. ICn: concentration for n% inhibition.